Anti-infective test results gathered from many reports (values: NIAID ChemDB through PubChem).

Common to all: enzyme or target tests; organism: HIV-1; target: Reverse transcriptase; method: nucleotide incorporation; measure: inhibition

Rows are shuffled and stem from different studies. a–b is a range or a potency band. Percent inhibition refers to the dose given; in toxicity tests it is the harm to the cells.

structure	tested at	value
CC(C)Nc1cccnc1N1CCN(C(=O)c2nc3ccccc3[nH]2)CC1	100 µM	64–78%
O=C(O[C@@H]1[C@@H](c2c(O)cc(O)c3c2O[C@H](c2ccc(O)c(O)c2)[C@H](OC(=O)c2cc(O)c(O)c(O)c2)C3)c2c(O)cc(O)cc2O[C@@H]1c1ccc(O)c(O)c1)c1cc(O)c(O)c(O)c1	20 µg/mL	0%
CCCOC(=O)N1c2ccc([N+](=O)[O-])cc2C=CC1C#N	50 µM	81.8%
COc1ccc(S(=O)(=O)N2CCN(C(=O)c3ccc(Nc4ccnc5cc(C(F)(F)F)ccc45)cc3)CC2)cc1	100 µM	27%
O=C(O)C1=C[C@@H](O)[C@@H](O)[C@H](OC(=O)c2cc(O)c(O)c(O)c2)C1	20 µg/mL	0%
N#Cc1csc(NC(=O)NCCc2ccccc2)n1	10 µg/mL	94–95%
O=C(O[C@@H]1O[C@@H]2COC(=O)c3cc(O)c(O)c(O)c3-c3c(cc(O)c(O)c3O)C(=O)O[C@H]([C@H]1OC(=O)c1cc(O)c(O)c(O)c1)[C@@H]2OC(=O)c1cc(O)c(O)c(O)c1)c1cc(O)c(O)c(O)c1	20 µg/mL	0%
O=C(NC1CC=C(c2cccc(C(F)(F)F)c2)CC1)c1ccc(Nc2ccnc3cc(C(F)(F)F)ccc23)cc1	100 µM	29%
CCCOC(=O)N1c2ccc(OC)cc2C=CC1C#N	50 µM	73.6%
NOCc1c(F)cccc1Cl	100 µg/mL	2%
CC(C)(C)CNc1cccnc1N1CCN(C(=O)c2cc3ccccc3[nH]2)CC1	100 µM	42%
CCN1c2ncccc2-c2cscc2-c2cccnc21	1 µM	90%
CCOC(=O)N1c2ccc(OC)cc2C=CC1C#N	50 µM	69.9%
C=C(C)C1C=C[C@@H](OC(=O)c2cccnc2)C23COC(C)(C(=O)[C@@]4(OC(C)=O)C[C@H](C)[C@H](OC(=O)CCC)C4[C@H]2OC(=O)CC)C13	200 µg/mL	93.1%
CCN1c2ncccc2-c2cscc2-c2ccc(-c3cn[nH]c3)nc21	1 µM	92%
CSc1ncccc1C(=O)N1c2ccccc2C=CC1C#N	50 µM	≤30%
O=C(c1ccccc1)N1CCN(C(=O)c2ccc(Nc3ccnc4cc(C(F)(F)F)ccc34)cc2)CC1	100 µM	22%
Cc1cccc2sc(NC(=O)NCCc3ccccc3)nc12	1 µg/mL	12%
N#CC1C=Cc2ccccc2N1C(=O)c1cccnc1	50 µM	≤30%
CC(C)Nc1nccnc1N1CCN(C(=O)c2cc3cc(F)ccc3[nH]2)CC1	100 µM	94.5%
O=C(NCCc1ccccc1)Nc1ncccn1	1 µg/mL	12%
N#CC1C=Cc2ccccc2N1C(=O)c1ccncc1	50 µM	≤30%
O=C(NCCc1ccccc1)Nc1nc2ccc(Cl)cc2s1	1 µg/mL	18%
CCNc1cccnc1N1CCN(CCc2cc(C)c(OC)c(C)c2)CC1	100 µM	34%
COC(=O)C(=O)c1csc(NC(=O)NCCc2ccccc2)n1	1 µg/mL	1%
C=C(C)C1C=C[C@@H](OC(=O)c2cccnc2)C23COC(C)(C(=O)[C@@]4(OC(C)=O)C[C@H](C)[C@H](OC(=O)CC)C4[C@H]2OC(=O)CC)C13	200 µg/mL	49.5%
O=C(NCCc1ccccc1)Nc1ccccc1Cl	10 µg/mL	50%
CCNc1cccnc1N1CCN(C(=O)c2cc3ccccc3o2)CC1	100 µM	83–91%
CC(C)Nc1cccnc1N1CCN(C(=O)c2cc3cc(N)ccc3[nH]2)CC1	100 µM	83%
O=C(OC[C@H]1O[C@@H](OC(=O)c2cc(O)c(O)c(O)c2)[C@H](OC(=O)c2cc(O)c(O)c(O)c2)[C@@H](OC(=O)c2cc(O)c(O)c(O)c2)[C@@H]1OC(=O)c1cc(O)c(O)c(O)c1Oc1cc2c(c(O)c1O)-c1c(cc(O)c(O)c1O)C(=O)OC[C@H]1O[C@@H](OC(=O)c3cc(O)c(O)c(O)c3)[C@H](OC(=O)c3cc(O)c(O)c(O)c3)[C@@H](OC(=O)c3cc(O)c(O)c(O)c3)[C@@H]1OC2=O)c1cc(O)c(O)c(O)c1	20 µg/mL	0%
CCCCCc1cc2c(=O)cc(C(=O)OC)[nH]c2c2c(=O)cc(C(=O)OC)[nH]c12	100 µM	74%
CCOC(=O)N1c2cc3c(cc2C=CC1C#N)OCO3	50 µM	44.1%
CC(C)Nc1cccnc1N(C)N1CCN(C(=O)c2cc3ccccc3[nH]2)CC1	100 µM	85–97%
Cc1nnc(NC(=O)NCCc2ccccc2)s1	1 µg/mL	21%
COc1cc(NC(C)CCCNCc2cc(Nc3ccnc4cc(Cl)ccc34)cc(CN3CCCC3)c2O)c2ncccc2c1	100 µM	45%
Cc1ccnc(NC(=O)NCCc2ccccc2)n1	0.1 µg/mL	9%
COC(=O)N1c2ccc(OC)cc2C=CC1C#N	50 µM	40.6%
CS(=O)(=O)Nc1cccnc1N1CCN(C(=O)c2cc3ccccc3[nH]2)CC1	100 µM	44%

For reference, 3 entries again:

structure	tested at	value
CC(C)Nc1cccnc1N1CCN(C(=O)c2cc3cc(N)ccc3[nH]2)CC1	100 µM	83%
CCNc1cccnc1N1CCN(CCc2cc(C)c(OC)c(C)c2)CC1	100 µM	34%
CC(C)(C)CNc1cccnc1N1CCN(C(=O)c2cc3ccccc3[nH]2)CC1	100 µM	42%